Measured values taken from patent publication US20120219613A1 (priority 2009, published 2012).

Assays:
[1] = test system: RVFV-ZH501; design: species or system mice; details: mouse, in vivo, ip
[2] = test system: HIV-1 (pNL-GFPΔenv) psuedotyped with VSV-G; format: cell-based

## C=CCN1C(=O)/C(=C/c2ccc(-c3ccccc3)o2)SC1=S [LJ-001, (Z)-3-Allyl-5-(5-phenyl-2-furyl)methylene-4-oxothiazolidine-2-thione]
[1]
  animals in which mortality was prevented: 100%
[2]
  cellular entry of the lentiviral genome: inhibited regardless of the envelope
